In article PMC11784312, “Structural basis of different neutralization capabilities of monoclonal antibodies against H7N9 virus” (2024) one finds stoichiometry N data, which are given here for one substance.

For the assay, the target named is recombinant SD008 HA ectodomain (influenza A virus A/chicken/Guangdong/SD008/2017 (H7N9)). The assay is described as follows: cryo-EM structure.

As for “recombinant SD008 HA ectodomain (domain or fragment)”, the stoichiometry N (as a rule, the number of molecules, sites or subunits per partner or assembly) turned out to be 3.
